Article PMC11121837, “Impact of Nitric Oxide-Release Kinetics on Antifungal Activity” (Journal of Fungi, 2024)

Key:
C. albicans (MYA-2876) [1] = assay: Confocal microscopy; format: cell-based, Candida albicans; conditions: 5× MIC, 24 h
[2] = test system: A. fumigatus (ATCC 1022) spores; assay: Checkerboard assay adapted for spores
[3] = test system: C. neoformans (ATCC 208821); assay: Checkerboard assay of NO donors with antifungals; format: cell-based, Cryptococcus neoformans
C. albicans (MYA-2876) [4] = assay: Passaging assay (resistance development); format: cell-based, Candida albicans; conditions: 1/10th of MIC daily, 21 passages, regardless of passage
[5] = test system: C. neoformans (ATCC208821); assay: Passaging assay (resistance development); format: cell-based, Cryptococcus neoformans; conditions: 1/10th of MIC daily, 21 passages, regardless of passage
[6] = test system: C. albicans (ATCC MYA-2876); assay: Checkerboard assay of NO donors with antifungals; format: cell-based, Candida albicans
C. auris (ATCC MYA-5001) = assay: Checkerboard assay of NO donors with antifungals; format: cell-based, Candida auris
[7] = test system: Aspergillus fumigatus spores; assay: Susceptibility assay for sporulating fungi (MIC, EUCAST E.Def.9.4); format: cell-based; conditions: Aspergillus fumigatus ATCC 1022 spores
Cryptococcus neoformans = assay: Susceptibility assay (MIC, broth microdilution, CLSI M27); format: cell-based; conditions: for MIC: 72 h; for MIC NO Dose: calculated NO dose at MIC
Candida albicans = assay: as above; format: cell-based; conditions: for MIC: 24 h; for MIC NO Dose: calculated NO dose at MIC
Candida auris = assay: as above; format: cell-based; conditions: for MIC: 24 h; for MIC NO Dose: calculated NO dose at MIC
C. auris (MYA-5001) = assay: Passaging assay (resistance development); format: cell-based, Candida auris; conditions: 1/10th of MIC daily, 21 passages, regardless of passage
[8] = NO donor (24 h pretreatment of spores) then 5-fluorocytosine
[9] = NO donor (24 h pretreatment of spores) then amphotericin B
[10] = NO donor (24 h pretreatment of spores) then butenafine
[11] = NO donor (24 h pretreatment of spores) then caspofungin
[12] = NO donor (24 h pretreatment of spores) then fluconazole
[13] = NO donor (24 h pretreatment of spores) then miconazole
[14] = NO donor combined with 5-fluorocytosine
[15] = NO donor combined with amphotericin B
[16] = NO donor combined with butenafine
[17] = NO donor combined with caspofungin
[18] = NO donor combined with fluconazole
[19] = NO donor combined with miconazole
[20] = Cryptococcus neoformans ATCC 208821
[21] = Cryptococcus neoformans ATCC MYA-4567

For `[O-]/[N+](=N\O)C(/[N+]([O-])=N/O)/[N+]([O-])=N/O`, the “intracellular NO (DAF-2 DA fluorescence)” value (C. albicans (MYA-2876) [1]) was “increased NO levels within treated fungi”, the “propidium iodide fluorescence (cell death)” value (C. albicans (MYA-2876) [1]; relative to control sample) was “visual increase in PI fluorescence” and the “hyphae formation (calcofluor white staining)” value (C. albicans (MYA-2876) [1]; relative to controls) was “marked decrease in hyphae formation”. The checkerboard classification [2, 8] was “I (indifferent (I))”, the “∑FIC” value [2, 8] was ≥ 1 and the checkerboard classification [2, 9] was “I (indifferent (I))”. For the same molecule, the “∑FIC” value [2, 9] was ≥ 1, the checkerboard classification [2, 10] was “I (indifferent (I))” and the “∑FIC” value [2, 10] was ≥ 1. The checkerboard classification [2, 11] was “I (indifferent (I))”, the “∑FIC” value [2, 11] was ≥ 1 and the checkerboard classification [2, 12] was “I (indifferent (I))”. For the same molecule, the “∑FIC” value [2, 12] was ≥ 1, the checkerboard classification [2, 13] was “I (indifferent (I))” and the “∑FIC” value [2, 13] was ≥ 1. The checkerboard classification [3, 14] was “I (indifferent (I))”, the “∑FIC” value [3, 14] was ≥ 1 and the checkerboard classification [3, 15] was “I (indifferent (I))”. The “∑FIC” value [3, 15] was ≥ 1, the checkerboard classification [3, 16] was “A (additive (A))” and the “∑FIC” value [3, 16] was 0.500. The checkerboard classification [3, 17] was “I (indifferent (I))”, the “∑FIC” value [3, 17] was ≥ 1 and the checkerboard classification [3, 18] was “I (indifferent (I))”. For the same molecule, the “∑FIC” value [3, 18] was ≥ 1, the checkerboard classification [3, 19] was “I (indifferent (I))” and the “∑FIC” value [3, 19] was ≥ 1. The “change in MIC or MFCs after serial passaging” value (shortened to “change in MIC or MFCs”) (C. albicans (MYA-2876) [4]) was “no change”, the “change in MIC or MFCs” value [5] was “no change” and the checkerboard classification [6, 14] was “I (indifferent (I))”. For the same molecule, the “∑FIC” value [6, 14] was ≥ 1, the checkerboard classification [6, 15] was “I (indifferent (I))” and the “∑FIC” value [6, 15] was ≥ 1. For the same molecule, the checkerboard classification [6, 16] was “I (indifferent (I))”, the “∑FIC” value [6, 16] was ≥ 1 and the checkerboard classification [6, 17] was “I (indifferent (I))”. For the same molecule, the “∑FIC” value [6, 17] was ≥ 1, the checkerboard classification [6, 18] was “I (indifferent (I))” and the “∑FIC” value [6, 18] was ≥ 1. For the same molecule, the checkerboard classification [6, 19] was “A (additive (A))”, the “∑FIC” value [6, 19] was 0.530 and the checkerboard classification (C. auris (ATCC MYA-5001); [14]) was “I (indifferent (I))”. The “∑FIC” value (C. auris (ATCC MYA-5001); [14]) was ≥ 1, the checkerboard classification (C. auris (ATCC MYA-5001); [15]) was “I (indifferent (I))” and the “∑FIC” value (C. auris (ATCC MYA-5001); [15]) was ≥ 1. The checkerboard classification (C. auris (ATCC MYA-5001); [16]) was “I (indifferent (I))”, the “∑FIC” value (C. auris (ATCC MYA-5001); [16]) was ≥ 1 and the checkerboard classification (C. auris (ATCC MYA-5001); [17]) was “I (indifferent (I))”. The “∑FIC” value (C. auris (ATCC MYA-5001); [17]) was ≥ 1, the checkerboard classification (C. auris (ATCC MYA-5001); [18]) was “I (indifferent (I))” and the “∑FIC” value (C. auris (ATCC MYA-5001); [18]) was ≥ 1. The checkerboard classification (C. auris (ATCC MYA-5001); [19]) was “A (additive (A))”, the “∑FIC” value (C. auris (ATCC MYA-5001); [19]) was 0.562 and the MIC [7] was 70 mg/L (≈ 357 µM). The “MIC NO Dose” value ([7]; calculated NO dose at MIC) was 10.5 mg/L (≈ 53.5 µM), the MIC (Cryptococcus neoformans; [20]) was 30 mg/L (≈ 153 µM) and the “MIC NO Dose” value (Cryptococcus neoformans; [20]) was 4.50 mg/L (≈ 22.9 µM). The “MIC NO Dose” value (Cryptococcus neoformans; Cryptococcus neoformans ATCC MYA-4566) was 2.99 mg/L (≈ 15.2 µM), the MIC (Cryptococcus neoformans; [21]) was 20 mg/L (≈ 102 µM) and the “MIC NO Dose” value (Cryptococcus neoformans; [21]) was 2.99 mg/L (≈ 15.2 µM). The MIC (Candida albicans; Candida albicans ATCC 14053) was 150 mg/L (≈ 765 µM), the “MIC NO Dose” value (Candida albicans; Candida albicans ATCC 14053) was 22.4 mg/L (≈ 114 µM) and the MIC (Candida albicans; Candida albicans ATCC 18804) was 40 mg/L (≈ 204 µM). The “MIC NO Dose” value (Candida albicans; Candida albicans ATCC 18804) was 5.98 mg/L (≈ 30.5 µM), the MIC (Candida albicans; Candida albicans ATCC MYA-2876) was 60 mg/L (≈ 306 µM) and the “MIC NO Dose” value (Candida albicans; Candida albicans ATCC MYA-2876) was 8.98 mg/L (≈ 45.8 µM). The MIC (Candida auris; Candida auris ATCC MYA-5000) was 30 mg/L (≈ 153 µM), the “MIC NO Dose” value (Candida auris; Candida auris ATCC MYA-5000) was 4.49 mg/L (≈ 22.9 µM) and the MIC (Candida auris; Candida auris ATCC MYA-5001) was 20 mg/L (≈ 102 µM). For the same molecule, the MIC (Candida auris; Candida auris ATCC MYA-5003) was 40 mg/L (≈ 204 µM), the “MIC NO Dose” value (Candida auris; Candida auris ATCC MYA-5003) was 5.98 mg/L (≈ 30.5 µM) and the “change in MIC or MFCs” value (C. auris (MYA-5001)) was “no change”.

In brackets after ≈: the same amount, converted by molar mass.
